Results of unrelated studies side by side (data: NIAID ChemDB).

Shared fields: growth or infection tests; agent: HIV-1; read by: p24; measure: EC50

An empty or dashed field is not shown. ECn is the concentration giving n% inhibition of infection, replication or growth. Conditions beyond the fields shown may differ between rows.

Cc1cn([C@H]2C[C@H](N=[N+]=[N-])[C@@H](CO)O2)c(=O)[nH]c1=O ; cell line: PBMC ; strain: 8684 CLADE C CLADE C ; result: 0.004 µM
Cc1cc(Br)cc(C)c1-n1nnnc1SCC(=O)Nc1ccccc1Cl ; cell line: MT-4 ; result: <10 µM
O=c1[nH]cnc2c1ncn2[C@H]1CC[C@@H](CO)O1 ; cell line: MT-2 ; strain: M184V(RT-M184V) ; changes: RT-M184V ; result: 2.3 µM
C[C@@H](CNC(=S)Nc1ccc(Br)cn1)c1ccccc1 ; cell line: PBMC ; strain: IIIB ; result: 0.003 µM
Nc1ccn([C@H]2CO[C@@H](CO)S2)c(=O)n1 ; cell line: CEM ; strain: IIIB ; result: 0.2 µM
Cc1cn([C@H]2C[C@H](N=[N+]=[N-])[C@@H](CO)O2)c(=O)[nH]c1=O ; cell line: MT-2 ; strain: RT P119S V179D L214F ; changes: RT-P119S V179D L214F ; result: 0.015 µM
COC(=O)[C@H](C)NP(=O)(OC[C@@H]1C=C[C@H](n2cc(C)c(=O)[nH]c2=O)O1)Oc1ccc(Br)cc1 ; cell line: PBMC ; strain: C467-4 NNRTI-resistant clinical isolate ; changes: RT-Y188L ; result: 0.042 µM
C[C@H](Cn1cnc2c(N)ncnc21)OCP(=O)(O)O ; cell line: PBMC ; strain: IIIB ; result: 0.18 µM
Nc1ccn([C@H]2CC[C@@H](CO)O2)c(=O)n1 ; cell line: MT-2 ; strain: M184V(RT-M184V) ; changes: RT-M184V ; result: 1.1 µM
c1cc(CN2CCCNCCNCCCNCC2)ccc1CN1CCCNCCNCCCNCC1 ; cell line: PBMC ; strain: CM1 CLADE C R5 ; result: >0.5 µM
CCc1cc(NCc2nc3c(Cl)ccc(Cl)c3o2)c(=O)[nH]c1C ; cell line: MT-4 ; strain: NL4-3 ; changes: RT-A98G ; result: 0.8 µM
Cc1ccnc2c1NC(=O)c1cccnc1N2C1CC1 ; cell line: MT-2 ; changes: RT-K103N ; result: 2.436 µM
O=C1N(Cc2ccc(CO)cc2)[C@H](Cc2ccccc2)[C@H](O)[C@@H](O)[C@@H](Cc2ccccc2)N1Cc1ccc(CO)cc1 ; cell line: PBMC ; strain: RF ; result: 0.018 µM
Cc1cn([C@H]2C[C@H](N=[N+]=[N-])[C@@H](CO)O2)c(=O)[nH]c1=O ; cell line: PBMC ; strain: 410 clinical isolates AZT-resistant ; result: <6.6 µM
CCO/N=C(\c1ccc(Br)cc1)C1CCN(C2(C)CCN(C(=O)c3c(C)cc[n+]([O-])c3C)CC2)CC1 ; cell line: PBMC ; strain: HJE155 R5 CLADE B ; result: 0.0012 µM
CC(C)CN(C[C@@H](O)[C@H](Cc1ccccc1)NC(=O)[C@H](CC(N)=O)NC(=O)c1ccc2ccccc2n1)C(=O)NC(C)(C)C ; cell line: MT-4 ; strain: NL4-3 ; changes: PR-L10R M46I L63P ; result: <0.2 µM
Cc1cc(C)c(-n2nnnc2SCC(=O)Nc2ccc(F)cc2[N+](=O)[O-])c(C)c1 ; cell line: MT-4 ; result: <10 µM
Cc1cn([C@H]2C[C@H](N=[N+]=[N-])[C@@H](CO)O2)c(=O)[nH]c1=O ; cell line: PBL ; strain: CLADE F ; result: 0.002 µM
Cc1cn([C@H]2C[C@H](N=[N+]=[N-])[C@@H](CO)O2)c(=O)[nH]c1=O ; cell line: MT-4 ; strain: XM-Q151M ; changes: RT-A62V V75I F77C F116Y Q151M ; result: <121 µM
COC(=O)[C@H](C)NP(=O)(OC[C@@H]1C=C[C@H](n2cc(C)c(=O)[nH]c2=O)O1)Oc1ccc(Br)cc1 ; cell line: PBMC ; strain: G190-6 NRTI resistant ; changes: RT-M41L D67N K70R T215Y K219Q ; result: 0.0028 µM
Cc1cc(C)c(-n2nnnc2SCC(=O)Nc2ccc(C(N)=O)cc2Cl)c(C)c1 ; cell line: MT-4 ; result: <10 µM
O=c1[nH]cnc2c1ncn2[C@H]1CC[C@@H](CO)O1 ; cell line: MT-4 ; strain: XM-AZT-resistant ; changes: RT-M41L D67N K70R T215Y K219Q ; result: <11 µM
Cc1cn([C@H]2C[C@H](N=[N+]=[N-])[C@@H](CO)O2)c(=O)[nH]c1=O ; cell line: PBMC ; strain: X165-8 Clinical isolate ZDV-resistant ; changes: RT-D67N T69N K70R K103N Y181C T215F K219E ; result: 0.9 µM
CC(C)(C)NC(=O)[C@@H]1CN(Cc2cccnc2)CCN1C[C@@H](O)C[C@@H](Cc1ccccc1)C(=O)N[C@H]1c2ccccc2C[C@H]1O ; cell line: PBMC ; strain: 56252-1 NRTI resistant recombinant ; changes: RT-T69K K70G V75I F77L F116Y Q151M M184V ; result: 0.009 µM
S=C(NCCc1cccs1)Nc1ccc(Br)cn1 ; cell line: PBMC ; strain: A17var RT-Y181C K103N NNRTI-resistant ; result: 2.054 µM
CC(C)c1nc(CN(C)C(=O)N[C@H](C(=O)N[C@@H](Cc2ccccc2)C[C@H](O)[C@H](Cc2ccccc2)NC(=O)OCc2cncs2)C(C)C)cs1 ; cell line: MT-4 ; strain: NL4-3-P28 (PR M46I I84V) ; changes: PR-M46I I84V ; result: <0.9 µM
CCC(NC(=S)Nc1ccc(Cl)cn1)c1ccccc1 ; cell line: PBMC ; strain: IIIB ; result: 0.001 µM
O=c1[nH]cnc2c1ncn2[C@H]1CC[C@@H](CO)O1 ; cell line: MT-2 ; strain: NL4-3 WT ; result: 0.297 µM
Cc1cn([C@H]2C[C@H](N=[N+]=[N-])[C@@H](CO)O2)c(=O)[nH]c1=O ; cell line: MT-4 ; strain: HXB2-D184 (RT-M184V) ; changes: RT-M184V ; result: 0.06 µM
Nc1ccn([C@@H]2CS[C@H](CO)O2)c(=O)n1 ; cell line: PBMC ; strain: Recombinant ; changes: RT-V75I F77L F116Y Q151M ; result: 0.1 µM
c1cc(CN2CCCNCCNCCCNCC2)ccc1CN1CCCNCCNCCCNCC1 ; cell line: PBMC ; strain: JR-FL R5 ; result: >10 µM
O=C1N(Cc2ccc(CO)cc2)[C@H](Cc2ccccc2)[C@H](O)[C@@H](O)[C@@H](Cc2ccccc2)N1Cc1ccc(CO)cc1 ; cell line: MT-4 ; strain: NL4-3 ; changes: PR-L63P V82T ; result: <0.4 µM
Cc1cn([C@H]2C[C@H](N=[N+]=[N-])[C@@H](CO)O2)c(=O)[nH]c1=O ; cell line: MT-4 ; strain: HXB2D (RT-K65R) ; changes: RT-K65R ; result: 0.011 µM
Cc1ccc(NC(=S)NC[C@H](C)c2ccccc2)nc1 ; cell line: PBMC ; strain: IIIB ; result: 0.003 µM
CCC[C@@]1(CCc2ccccc2)CC(O)=C([C@H](CC)c2cccc(NS(=O)(=O)c3ccc(C(F)(F)F)cn3)c2)C(=O)O1 ; cell line: PBMC ; strain: 458 clinical isolates delavirdine-resistant ; result: <0.04 µM
O=c1[nH]cnc2c1ncn2[C@H]1CC[C@@H](CO)O1 ; cell line: PBL ; strain: IIIB ; result: 0.18 µM
Nc1ncnc2c1ncn2[C@@H]1O[C@H](CO)C[C@@H]1F ; cell line: MT-2 ; strain: RT P119S L214F ; changes: RT-P119S L214F ; result: 14 µM
Cc1csc(NC(=S)N[C@H](C)c2ccccc2)n1 ; cell line: PBMC ; strain: NNRTI-resistant (RT Y181C) A17 ; changes: RT-Y181C ; result: 0.164 µM
CC(C)[C@H](NC(=O)c1ccc2ccccc2n1)C(=O)N[C@@H](Cc1ccccc1)[C@H](O)CN1CC[C@@H](OCc2ccncc2)C[C@H]1C(=O)NC(C)(C)C ; cell line: U1/HIV-1 + U1 ; strain: IIIB/LAV ; result: 0.09 µM
Cc1cc(C)c(-n2nnnc2SCC(=O)Nc2ccc([N+](=O)[O-])cc2Cl)c(C)c1 ; cell line: MT-4 ; result: <10 µM
C[C@@H](NC(=S)Nc1ccc(Br)cn1)c1cccc2ccccc12 ; cell line: PBMC ; strain: NNRTI-resistant (RT Y181C K103N) A17V ; changes: RT-Y181C K103N ; result: 0.287 µM
Nc1ccn([C@@H]2CO[C@H](CO)S2)c(=O)n1 ; cell line: MT-4 ; strain: IIIB ; result: 0.9 µM
Cc1cn([C@H]2C[C@H](N=[N+]=[N-])[C@@H](CO)O2)c(=O)[nH]c1=O ; cell line: PBMC ; strain: Recombinant ; changes: RT-A62V ; result: 0.001 µM

The last 3 rows once more:

structure,cell line,strain,changes,result
C[C@@H](NC(=S)Nc1ccc(Br)cn1)c1cccc2ccccc12,PBMC,NNRTI-resistant (RT Y181C K103N) A17V,RT-Y181C K103N,0.287 µM
Nc1ccn([C@@H]2CO[C@H](CO)S2)c(=O)n1,MT-4,IIIB,,0.9 µM
Cc1cn([C@H]2C[C@H](N=[N+]=[N-])[C@@H](CO)O2)c(=O)[nH]c1=O,PBMC,Recombinant,RT-A62V,0.001 µM